Pooled drug test results. Numbers come from NIAID ChemDB, via PubChem.

Shared fields: whole-cell or culture tests; organism: Hepatitis C virus; measure: EC90

An empty or dashed field is not shown. ECn is the concentration giving n% inhibition of infection, replication or growth. Neighbouring rows are from separate reports.

{"smiles": "N#Cc1c(-c2ccc(F)cc2)nc(SCc2nc3ccccc3[nH]2)[nH]c1=O", "cell line": "Huh7", "method": "replicon / PCR", "result": "0.563 µM"}
{"smiles": "Nc1ncnc2c1c1c(N)ncnc1n2[C@@H]1O[C@H](CO)[C@@H](O)[C@H]1O", "cell line": "Huh7", "method": "replicon", "result": ">10 µM"}
{"smiles": "O=C1C(=O)c2ccccc2C(O)=C1CC=C(Cl)Cl", "cell line": "Huh7", "method": "PCR", "result": ">100 µM"}
{"smiles": "O=C(O)c1c(-c2ccccc2O)nc(NCc2nc3ccccc3[nH]2)[nH]c1=O", "cell line": "Huh7", "method": "replicon / PCR", "result": "1.78 µM"}
{"smiles": "O=c1cnn([C@@H]2O[C@H](CO)[C@@H](O)[C@H]2O)c(=O)[nH]1", "cell line": "Huh7", "method": "PCR", "result": ">100 µM"}
{"smiles": "CC[C@H](C)C(=O)O[C@H]1C[C@H](O)C=C2C=C[C@H](C)C(CC[C@@H](O)C[C@H](O)CC(=O)O)[C@H]21", "cell line": "Huh 9-13", "method": "luciferase / replicon", "result": ">20 µM"}
{"smiles": "CCC[C@H](NC(=O)[C@@H]1[C@H]2CCC[C@H]2CN1C(=O)[C@@H](NC(=O)[C@@H](NC(=O)c1cnccn1)C1CCCCC1)C(C)(C)C)C(=O)C(=O)NC1CC1", "cell line": "Huh7.5", "strain": "genotype 1b", "method": "luciferase / reporter gene", "result": "0.9119 µM"}
{"smiles": "C[C@@]1(F)[C@H](O)[C@@H](CO)O[C@H]1n1cnc2c(N)ncnc21", "cell line": "Huh7", "result": ">100 µM"}
{"smiles": "Cc1cn([C@H]2C[C@H](N=[N+]=[N-])[C@@H](CO)O2)c(=O)[nH]c1=O", "cell line": "Huh7", "method": "replicon", "result": ">10 µM"}
{"smiles": "CCCC(NC(=O)[C@@H]1C[C@@H](OC(C)(C)C)CN1C(=O)[C@@H](NC(=O)OCC(C)C)C(C)(C)C)C(=O)C(=O)NCC(=O)N[C@H](C(=O)N(C)C)c1ccccc1", "result": "3 µM"}
{"smiles": "C[C@@]1(O)[C@H](O)[C@@H](CO)O[C@H]1n1ccc(N)nc1=O", "cell line": "Huh7", "strain": "CLONE A S282T", "method": "replicon", "result": ">100 µM"}
{"smiles": "NC(=O)NO", "cell line": "Huh7", "method": "PCR", "result": ">100 µM"}
{"smiles": "C[C@@]1(O)[C@H](O)[C@@H](CO)O[C@H]1n1cnc2c(N)nc(N)nc21", "cell line": "Huh7", "method": "PCR", "result": ">10 µM"}
{"smiles": "C[C@@]1(O)[C@H](O)[C@@H](CO)O[C@H]1n1c2ncnc(N)c2c2c(N)ncnc21", "cell line": "Huh7", "method": "replicon", "result": ">10 µM"}
{"smiles": "N#Cc1c(-c2ccccc2)nc(NCc2nc3ccccc3[nH]2)[nH]c1=O", "cell line": "Huh7", "method": "replicon / PCR", "result": "0.678 µM"}
{"smiles": "NC(=O)c1csc([C@@H]2O[C@H](CO)[C@@H](O)[C@H]2O)n1", "method": "PCR", "result": ">100 µM"}
{"smiles": "CCC(NC(=O)C1CCC1C(=O)[C@@H](NC(=O)[C@@H](NC(=O)c1cnccn1)C1CCCCC1)C(C)(C)C)C(=O)C(=O)NC1CC1", "cell line": "Huh7", "method": "PCR", "result": ">10 µM"}
{"smiles": "N#Cc1c(-c2ccccc2O)nc(SCc2nc3ccccc3[nH]2)[nH]c1=O", "cell line": "Huh7", "method": "replicon / PCR", "result": "0.345 µM"}
{"smiles": "NC(=O)c1[nH]nc([C@@H]2O[C@H](CO)[C@@H](O)[C@H]2O)c1O", "cell line": "Huh7", "method": "PCR", "result": "3.8 µM"}
{"smiles": "N#Cc1c(-c2ccc(Cl)cc2)nc(NCc2nc3ccccc3[nH]2)[nH]c1=O", "cell line": "Huh7", "method": "replicon / PCR", "result": "0.456 µM"}
{"smiles": "COc1c(C)c2c(c(O)c1C/C=C(\\C)CCC(=O)O)C(=O)OC2", "cell line": "Huh7", "method": "PCR", "result": ">100 µM"}

Again, the opening 3 rows:

smiles | cell line | strain | method | result
N#Cc1c(-c2ccc(F)cc2)nc(SCc2nc3ccccc3[nH]2)[nH]c1=O | Huh7 | - | replicon / PCR | 0.563 µM
Nc1ncnc2c1c1c(N)ncnc1n2[C@@H]1O[C@H](CO)[C@@H](O)[C@H]1O | Huh7 | - | replicon | >10 µM
O=C1C(=O)c2ccccc2C(O)=C1CC=C(Cl)Cl | Huh7 | - | PCR | >100 µM